Sequence variants of PSTVd loop 15 after infection

Data from the supplement of Wu et al. 2024, doi:10.1371/journal.ppat.1012142.

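Three N. benthamiana plants were inoculated with the whole mutant pool. Progeny were sequenced from the inoculated region (day 5), the margin of the inoculated leaf (day 10) and systemic leaves (day 12).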

PSTVd intermediate strain, loop 15: wild type GGAAACCGCUACUAC, pool pattern GGAAACCGNNNNNNC; upper and lower strand joined, each 5' to 3', the first 7 letters being the upper strand, closing pairs included.

Numbers give reads per thousand; 0 = not seen among the reads, higher = more abundant.
Each value is the mean of three plants.
"Pool" is the share in the plasmid pool used as inoculum, on the same scale.
The inoculated region was read from the minus strand, the other sites from the plus strand.
Wild type was 33.9 per thousand in the pool and the most common sequence in every sample (inoculated region 202, 200, 159; leaf margin 724, 746, 710; systemic leaves 856, 883, 880).
The authors trace changes outside the varied positions to PCR and sequencing errors or to mutation in the plant; presence does not show that a variant is infectious alone.
Samples held 43,870 to 66,106 reads, so the smallest values rest on one or two reads.

With GGAAACCGACUGAUC (pool 0.192) the assay gave inoculated region 0.116; leaf margin 0.0134; systemic leaves 0. For GGAAACCGUGUUUUC (pool 0.192) the result was inoculated region 0.0886; leaf margin 0.0282; systemic leaves 0. For GGAAACCGCGAAGCC (pool 0.208) the result was inoculated region 0.110; leaf margin 0; systemic leaves 0. For GGAAACCGGUAGAAC (pool 0.288) the result was inoculated region 0.343; leaf margin 0.108; systemic leaves 0.0597. GGAAACCGGAACGAC (pool 0.240) gave inoculated region 0.0903; leaf margin 0.0316; systemic leaves 0. GGAAACCGGCGGACC (pool 0.304) gave inoculated region 0.0868; leaf margin 0; systemic leaves 0. With GGAAACCGUCGUGCC (pool 0.304) the assay gave inoculated region 0.129; leaf margin 0; systemic leaves 0. GGAAACCGAGAUCCC (pool 0.176) gave inoculated region 0.0750; leaf margin 0.00742; systemic leaves 0.

For GGAAACCGGAGUCGC (pool 0.256) the result was inoculated region 0.111; leaf margin 0.0134; systemic leaves 0. GGAAACCGAUAGCGC (pool 0.272) read inoculated region 0.138; leaf margin 0; systemic leaves 0. GGAAACCGGAGAGCC (pool 0.256) gave inoculated region 0.0976; leaf margin 0; systemic leaves 0. For GGAAACCGGUUCUUC (pool 0.256) the result was inoculated region 0.117; leaf margin 0.00539; systemic leaves 0. With GGAAACCGUCAUCUC (pool 0.304) the assay gave inoculated region 0.402; leaf margin 0.0972; systemic leaves 0.0215. GGAAACCGUCGCCUC (pool 0.352) read inoculated region 0.0838; leaf margin 0.0128; systemic leaves 0. GGAAACCGAGAGAGC (pool 0.240) gave inoculated region 0.108; leaf margin 0.0249; systemic leaves 0. GGAAACCGCUGAACC (pool 0.208) read inoculated region 0.0912; leaf margin 0; systemic leaves 0.

GGAAACCGUCACGUC (pool 0.240) read inoculated region 0.165; leaf margin 0.0187; systemic leaves 0. GGAAACCGUUAGAAC (pool 0.176) gave inoculated region 0.284; leaf margin 0.0900; systemic leaves 0.0819. For GGAAACCGGCCCGCC (pool 0.0960) the result was inoculated region 0.0886; leaf margin 0.0241; systemic leaves 0. With GGAAACCGCCCACUC (pool 0.224) the assay gave inoculated region 0.278; leaf margin 0.119; systemic leaves 0.0215. For GGAAACCGUACUUAC (pool 0.240) the result was inoculated region 0.432; leaf margin 0.102; systemic leaves 0.0436. For GGAAACCGUCGGGCC (pool 0.240) the result was inoculated region 0.113; leaf margin 0.0141; systemic leaves 0. With GGAAACCGAGGGACC (pool 0.144) the assay gave inoculated region 0.0912; leaf margin 0.0175; systemic leaves 0. GGAAACCGGAAUAAC (pool 0.160) read inoculated region 0.0803; leaf margin 0.0208; systemic leaves 0.0107.

With GGAAACCGUGCUAUC (pool 0.288) the assay gave inoculated region 0.175; leaf margin 0.0121; systemic leaves 0. GGAAACCGCCUGAAC (pool 0.224) gave inoculated region 0.0924; leaf margin 0; systemic leaves 0. For GGAAACCGUAGGCCC (pool 0.256) the result was inoculated region 0.190; leaf margin 0; systemic leaves 0.00537. GGAAACCGGUGCGAC (pool 0.288) read inoculated region 0.0791; leaf margin 0.00668; systemic leaves 0.00537. With GGAAACCGAUCAAUC (pool 0.272) the assay gave inoculated region 0.272; leaf margin 0.0121; systemic leaves 0.00537. GGAAACCGACUCGCC (pool 0.352) read inoculated region 0.101; leaf margin 0; systemic leaves 0. For GGAAACCGAUCAAGC (pool 0.336) the result was inoculated region 0.0706; leaf margin 0; systemic leaves 0.00760. GGAAACCGUCAGGCC (pool 0.256) read inoculated region 0.0750; leaf margin 0; systemic leaves 0.0107.

With GGAAACCGCAUAUCC (pool 0.336) the assay gave inoculated region 0.161; leaf margin 0.00539; systemic leaves 0. GGAAACCGUGGUUAC (pool 0.256) gave inoculated region 0.250; leaf margin 0.115; systemic leaves 0.0799. GGAAACCGCAACCGC (pool 0.208) read inoculated region 0.0672; leaf margin 0.0308; systemic leaves 0.00760. GGAAACCGCCCAACC (pool 0.176) gave inoculated region 0.0911; leaf margin 0.0208; systemic leaves 0.00537. With GGAAACCGGCCUGCC (pool 0.176) the assay gave inoculated region 0.104; leaf margin 0.0121; systemic leaves 0.00760. With GGAAACCGAGAACCC (pool 0.288) the assay gave inoculated region 0.0993; leaf margin 0; systemic leaves 0. GGAAACCGAAUCUCC (pool 0.224) read inoculated region 0.101; leaf margin 0.0141; systemic leaves 0.

5 of these entries, quoted again:

* GGAAACCGCGAAGCC (pool 0.208): inoculated region 0.110; leaf margin 0; systemic leaves 0
* GGAAACCGGCCUGCC (pool 0.176): inoculated region 0.104; leaf margin 0.0121; systemic leaves 0.00760
* GGAAACCGACUCGCC (pool 0.352): inoculated region 0.101; leaf margin 0; systemic leaves 0
* GGAAACCGAUCAAUC (pool 0.272): inoculated region 0.272; leaf margin 0.0121; systemic leaves 0.00537
* GGAAACCGACUGAUC (pool 0.192): inoculated region 0.116; leaf margin 0.0134; systemic leaves 0